Data as given in article PMC4382515.

System: N[C@@H](CCC(=O)O)C(=O)O
Assay: purified protein
Details: pH 4.6; 25.0 °C

Substance: BmGadB (Brucella microti CCM 4915)
- Km: 2680 ± 170 µM
- kcat/Km: 6660 M⁻¹ s⁻¹
